Results of unrelated studies side by side (data: NIAID ChemDB).

All rows: host cell toxicity; cell line: Vero mammalian cells; read by: MTT; endpoint: CC50

CCn: concentration that lowers growth or viability of the cells by n%.

{"smiles": "O=C(O)c1c(=O)c2cc(F)c(N3CCN(Cc4ccc5c(c4)OCO5)CC3)cc2n2c1sc1ccccc12", "value": ">117.6 µM"}
{"smiles": "COc1c(N2CCSCC2)c(F)cc2c(=O)c(C(=O)O)cn(C3CC3)c12", "value": "165.6 µM"}
{"smiles": "O=C(O)c1cn(C2CC2)c2cc(N3CCC(O)(c4ccc(Cl)cc4)CC3)c([N+](=O)[O-])cc2c1=O", "value": ">137 µM"}
{"smiles": "COc1c(N2CCc3ccccc3C2C(=O)NC(C)(C)C)c(F)c([N+](=O)[O-])c2c(=O)c(C(=O)O)cn(C3CC3)c12", "value": "113 µM"}
{"smiles": "CC(C)(C)n1cc(C(=O)O)c(=O)c2cc([N+](=O)[O-])c(N3CCC(n4c(=O)[nH]c5cc(Cl)ccc54)CC3)cc21", "value": ">117.5 µM"}
{"smiles": "C[C@H]1COc2c(N3CCC(n4c(=O)[nH]c5cc(Cl)ccc54)CC3)c(F)cc3c(=O)c(C(=O)O)cn1c23", "value": ">122 µM"}
{"smiles": "COc1c(N2COCC2(C)C)c(F)cc2c(=O)c(C(=O)O)cn(C3CC3)c12", "value": "166 µM"}
{"smiles": "O=C(O)c1c(=O)c2cc([N+](=O)[O-])c(N3CCC(O)(c4ccc(Cl)cc4)CC3)cc2n2c1sc1ccccc12", "value": "113.6 µM"}
{"smiles": "COc1ccc(CC2C3=C(CCCC3)CCN2c2c(F)cc3c(=O)c(C(=O)O)cn(C4CC4)c3c2OC)cc1", "value": "117 µM"}
{"smiles": "O=C(O)c1cn(C2CC2)c2cc(N3CCN(C(c4ccccc4)c4ccc(Cl)cc4)CC3)c(F)cc2c1=O", "value": ">117.5 µM"}
{"smiles": "CC1COc2c(N3CCN(C(=O)c4ccco4)CC3)c(F)c([N+](=O)[O-])c3c(=O)c(C(=O)O)cn1c23", "value": "64.25 µM"}
{"smiles": "CCN(CC)C(=O)C1CCCN(c2cc3c(cc2[N+](=O)[O-])c(=O)c(C(=O)O)cn3C2CC2)C1", "value": ">146 µM"}
{"smiles": "C[C@H]1COc2c(N3CCC(O)(c4ccc(Cl)cc4)CC3)c(F)c([N+](=O)[O-])c3c(=O)c(C(=O)O)cn1c23", "value": "60.35 µM"}
{"smiles": "COc1ccc(CC2C3=C(CCCC3)CCN2c2c(F)c(N)c3c(=O)c(C(=O)O)cn(C4CC4)c3c2OC)cc1", "value": "114 µM"}
{"smiles": "CC1COc2c(N3CCC4(CC3)OCCO4)c(F)c([N+](=O)[O-])c3c(=O)c(C(=O)O)cn1c23", "value": "139 µM"}
{"smiles": "CN1CCN(c2cc3c(cc2F)c(=O)c(C(=O)O)cn3C2CC2)CC1c1ccccc1", "value": ">148.3 µM"}
{"smiles": "C[C@H]1COc2c(N3CCc4ccccc4C3C(=O)NC(C)(C)C)c(F)cc3c(=O)c(C(=O)O)cn1c23", "value": "127 µM"}
{"smiles": "O=C(O)c1c(=O)c2cc(F)c(N3CCC(N4CCCCC4)CC3)cc2n2c1sc1ccccc12", "value": "130.3 µM"}
{"smiles": "C[C@H]1COc2c(N3CCC4(CC3)OCCO4)c(F)c(N)c3c(=O)c(C(=O)O)cn1c23", "value": ">149 µM"}
{"smiles": "COc1cc2c(cc1OC)CN(c1cc3c(cc1[N+](=O)[O-])c(=O)c(C(=O)O)c1sc4ccccc4n13)CC2", "value": "117.6 µM"}
{"smiles": "CCN(CC)C(=O)C1CCCN(c2cc3c(cc2[N+](=O)[O-])c(=O)c(C(=O)O)cn3-c2ccc(F)cc2F)C1", "value": "62.38 µM"}
{"smiles": "CC1COc2c(N3CCN(C)C(c4ccccc4)C3)c(F)c([N+](=O)[O-])c3c(=O)c(C(=O)O)cn1c23", "value": "130 µM"}

Rows are shuffled and stem from different studies.